Reference: ChEMBL document CHEMBL1201862, “PubChem BioAssay data set” (2004)
The other results are listed elsewhere or left out. Only a part of the results of these assays is listed, not drawn at random. Activity calls are given as the source filed them. The rule behind the calls is not given here.

The molecules below were run against Nonstructural protein 1 (Influenza A virus) (UniProt Q194T2) (assay: qHTS Assay for Inhibitors of Influenza NS1 Protein Function.). Settings: Influenza A virus (A/WSN/1933(H1N1)).
Assay type: functional
With `O=[N+]([O-])c1ccc2nc3c([N+](=O)[O-])cc([N+](=O)[O-])cc3c(O)c2c1` the Potency was “inactive”. With `O=[N+]([O-])c1cccc2[nH]nnc12` the Potency was “inactive”. For `C[C@@H](O)CC(C)(C)N.Oc1c(Cl)c(Cl)c(Cl)c(Cl)c1Cl`, the Potency was “inactive”. In the case of `C=C(C)CNCC(=C)C.Oc1c(Cl)c(Cl)c(Cl)c(Cl)c1Cl`, the Potency is reported as “inactive”. In the case of `Cc1c2no[n+]([O-])c2c(C)[n+]([O-])[n+]1[O-]`, the Potency is reported as “inactive”. With `O=[As](O)(c1cccs1)c1cccs1` the Potency was “inactive”. For `O=P(Nc1nccs1)(c1ccccc1)c1nc2ccccc2s1` (stereo not drawn), the Potency was “inactive”. For `O=[N+]([O-])c1cc([N+](=O)[O-])c(-c2cc[nH]n2)s1`, the Potency was “inactive”. In the case of `O=[N+]([O-])c1ccc(O)c(/C=N/Nc2ccc([N+](=O)[O-])cc2[N+](=O)[O-])c1`, the Potency is reported as “inactive”. For `CC(=O)NC(SC(=S)N(C)C)C(Cl)(Cl)Cl` (stereo not drawn), the Potency was “inactive”. `CC1CCN(C(=O)Oc2c(Cl)cc(Cl)c3cccnc23)CC1` was tested, and the Potency was “inactive”. With `NCC(O)CN.Oc1c(Cl)c(Cl)c(Cl)c(Cl)c1Cl` the Potency was “inactive”. With `CCc1nc2c([nH]1)c1no[n+]([O-])c1c1no[n+]([O-])c21` the Potency was “inactive”.
